Compound potency records, mixed from different reports. Data source: NIAID ChemDB in PubChem.

All rows: growth or infection tests; organism: Cryptococcus neoformans; measure: MIC

Two numbers with a dash give a range or band.

compound | strain or isolate | value
CNC1C(C)OC(O[C@H]2c3cc(C)c(C(=O)NC(C)C(=O)OC)c(OC4OC(CO)C(O)C(O)C4O)c3-c3c(cc4c(c3O)C(=O)c3cc(OC)cc(O)c3C4=O)[C@@H]2O)C(O)C1OC1OC(CO)C(O)C(O)C1O | IAM 4514 | 0.8 µg/mL
Clc1ccc(-c2c(C(c3ccccc3)n3ccnc3)cnn2-c2ccc(Cl)cc2)cc1 |  | 11.1 µM
CC(C)(C)C1CCC(CN2C3=NC[C@H](CC4CCCCC4)N3C[C@H]2C2CCCCC2)CC1 | ATCC 32045 | 8–16 µg/mL
O=C(/C=C/c1ccc2ccccc2c1)c1ccccc1 | ATCC 32264 | >50 µg/mL
CCC(C)n1ncn(-c2ccc(N3CCN(c4ccc(OC[C@H]5CO[C@](Cn6cncn6)(c6ccc(Cl)cc6Cl)O5)cc4)CC3)cc2)c1=O |  | 0.016–1 µg/mL
Oc1ccc2c(c1)CC(Nc1ccccc1)CC2 |  | 64 µM
N=C(N)c1ccc2c(c1)[nH]c1cc(C(=N)N)ccc12 | H99 | 6.25 µg/mL
Clc1ccc(-n2ncc(C(c3ccccc3)n3ccnc3)c2-c2ccccc2)c(Cl)c1 |  | 33.3 µM
CC[C@@]1(O)C(=O)OCc2c1cc1n(c2=O)Cc2c-1nc1cc3c(cc1c2C)OCO3 | H99 | >100 µg/mL
O=[N+]([O-])c1ccc2c(c1)CCc1[se]nnc1-2 |  | 3.12 µg/mL
CCCCc1nc([N+]#N)c(C(=O)N2CCCC2)[nH]1 | L29 | 50 µg/mL
CC(C)(C)C1CCC(CN2C3=NC[C@@H](C4CCCCC4)N3C[C@@H]2CC2CCCCC2)CC1 | ATCC 32045 | 8–16 µg/mL
COc1cccc(/C=C/C(=O)c2ccc(Br)cc2)c1 | ATCC 32264 | >50 µg/mL
COc1cc(O)c2c(c1)C(=O)c1c(cc3c(c1O)-c1c(cc(C)c(C(=O)NC(C)C(=O)O)c1O)[C@H](OC1OC(C)CC(O)C1O)[C@H]3O)C2=O | IAM 4514 | 6.3 µg/mL
CN(C/C=C/c1ccccc1)Cc1cccc2ccccc12 |  | >200 µM
CCN1C2=NC[C@H](C3CCCCC3)N2C[C@@H]1Cc1ccccc1 | ATCC 32045 | >125 µg/mL
COc1ccc(/C=C/C(=O)c2ccccc2)cc1 | ATCC 32264 | >50 µg/mL
Clc1ccc(-c2c(C(c3ccccc3)n3ccnc3)cnn2-c2ccc(Cl)cc2Cl)cc1 |  | 11.1 µM
COc1cc(O)c2c(c1)C(=O)c1c(cc3c(c1O)-c1c(cc(C)c(C(=O)NC(C)C(=O)O)c1O)[C@H](OC1OC(C)CC(=O)C1O)[C@H]3O)C2=O | IAM 4514 | 6.3 µg/mL
OC(Cn1cncn1)(Cn1cncn1)c1ccc(F)cc1F | H99 ΔCNA1 mutant | 6.25 µg/mL
CN[C@@H]1[C@H](O)[C@@H](O)[C@H](O[C@H]2c3cc(C)c(C(=O)N[C@H](C)C(=O)O)c(O)c3-c3c(cc4c(c3O)C(=O)c3cc(OC)cc(O)c3C4=O)[C@@H]2O)O[C@@H]1C | D49 | 0.8 µg/mL
CCCCCCCCCNC1CCc2ccc(O)cc2C1 |  | 0.5 µM
CC(=O)N1CCN(c2ccc(OC[C@H]3CO[C@](Cn4ccnc4)(c4ccc(Cl)cc4Cl)O3)cc2)CC1 |  | 1 µg/mL
CC[C@@]1(O)C(=O)OCc2c1cc1n(c2=O)Cc2cc3c(N)c4c(cc3nc2-1)OCO4 | H99 | >100 µg/mL
CCOP(=O)(OCC)C(F)(F)[C@@H]1[C@@H](O)[C@H](O)[C@H](CO)N1CCNC1[C@@H](CO)O[C@H](OC)[C@H](NC(C)=O)[C@H]1O |  | >128 µg/mL
C[C@@H]1O[C@@H](O[C@H]2[C@H](O[C@H]3CC[C@@]4(C)[C@@H](CC[C@]5(C)[C@@H]4CC=C4[C@@H]6CC(C)(C)CC[C@]6(C(=O)O)CC[C@]45C)[C@]3(C)CO)OC[C@H](O)[C@@H]2O)[C@H](O)[C@H](O)[C@H]1O | KCTC 7224 | 25 µg/mL
COc1ccc(C(=O)CC(c2cc3ccccc3nc2Cl)C(C#N)C#N)cc1OC | ATCC 32264 | >50 µg/mL
CCN1C2=NC[C@H](Cc3ccccc3)N2C[C@@H]1CC1CCCCC1 | ATCC 32045 | 62–125 µg/mL
C[C@@H]1O[C@@H](OC2[C@H](O[C@H]3CC[C@@]4(C)[C@@H](CC[C@]5(C)[C@@H]4CC=C4[C@@H]6CC(C)(C)CC[C@@]6(C(=O)O)CC[C@]45C)[C@]3(C)CO)OC[C@H](O)[C@@H]2O)[C@H](O)[C@H](O[C@@H]2O[C@H](CO)[C@@H](O)[C@H](O)[C@H]2O)[C@H]1O | KCTC 7224 | >200 µg/mL
O=[N+]([O-])Sc1ccc2c(c1)-c1nn[se]c1CC2 |  | 12.5 µg/mL
Cc1c(N)nc([C@H](CC(N)=O)NC[C@H](N)C(N)=O)nc1C(=O)N[C@H](C(=O)N[C@H](C)[C@@H](O)[C@H](C)C(=O)N[C@H](C(=O)NCCc1nc(-c2nc(C(=O)NCCC[S+](C)C)cs2)cs1)[C@@H](C)O)C(O[C@@H]1O[C@@H](CO)[C@@H](O)[C@H](O)[C@@H]1O[C@H]1O[C@H](CO)[C@@H](O)[C@H](OC(N)=O)[C@@H]1O)c1cnc[nH]1 | Isolate 94-181 | 1.57 µg/mL
CC(C)C[C@@H]1CN2C(=NC[C@H]2C2CCCCC2)N1CCC12CC3CC(CC(C3)C1)C2 | ATCC 32045 | 10–16 µg/mL
C[C@@H](c1nc(-c2ccc(C#N)cc2)cs1)[C@](O)(Cn1cncn1)c1cc(F)ccc1F |  | 0.002–0.5 µg/mL
COc1cc(O)c2c(c1)C(=O)c1c(cc3c(c1O)-c1c(cc(C)c(C(=O)NC(C)C(=O)O)c1O)[C@H](OC1OC(CO)C(O)C(O)C1O)[C@H]3O)C2=O | IAM 4514 | >100 µg/mL
C[C@@H]1C[C@@H]([C@H](O)CC2CC(=O)NC(=O)C2)C(=O)[C@@H](C)C1 |  | 6.25 µg/mL
COc1ccc(C(=O)/C=C/c2ccc3ccccc3c2)c(OC)c1 | ATCC 32264 | >50 µg/mL
N#[N+]c1nc(-c2cccc(F)c2)[nH]c1C(=O)N1CCCC1 | L29 | 100 µg/mL
COCC1(C)OCC(CNCC(C)Cc2ccc(C(C)(C)C)cc2)O1 | 17-1-2 | 17.5 µM
COc1ccc(OC)c2c1CCc1snnc1-2 |  | 12.5 µg/mL
C(=C\c1ccccc1)/CN(Cc1cccc2ccccc12)n1cnnc1 |  | >200 µM
COc1cc(O)c2c(c1)C(=O)c1c(cc3c(c1O)-c1c(cc(C)c(C(=O)N[C@H](C)C(=O)O)c1O)[C@H](O[C@@H]1O[C@H](C)[C@H](N)[C@H](O[C@@H]4OC[C@@H](O)[C@H](O)[C@@H]4O)[C@H]1O)[C@H]3O)C2=O | D49 | 1.6 µg/mL
Cc1noc(NS(=O)(=O)c2ccc(N)cc2)c1C |  | 0.31–320 µg/mL
O=C1N2C3C(=COC=CC3O)CC23SSC12CC1=COC=CC(O)C1N2C3=O | E138 | 1 µg/mL
O=[N+]([O-])c1ccc(CNC2CCc3c(O)cccc3C2)cc1 |  | >64 µM
C[C@H](NC(=O)[C@H](Cc1ccccc1)NC(=O)[C@@H](N)CCCCN)C(=O)N[C@@H](CCCCN)C(=O)O | 32045 | >500 µg/mL
NC(=O)OC[C@H](O)[C@@H](O)[C@H](N)C(=O)N[C@H](C(=O)O)[C@H]1O[C@@H](n2cc(C(=O)O)c(=O)[nH]c2=O)[C@H](O)[C@@H]1O | ATCC 36556 | >100 µg/mL
CC(C)(C)C1CCC(CN2C3=NC[C@H](C4CCCCC4)N3C[C@@H]2CC2CCCCC2)CC1 | ATCC 32045 | 8–16 µg/mL
CN[C@@H]1[C@H](O)[C@@H](O)[C@H](O[C@H]2c3cc(C)c(C(=O)N[C@H](C)C(=O)O)c(O)c3-c3c(cc4c(c3O)C(=O)c3cc(OC)cc(O)c3C4=O)[C@@H]2O)O[C@@H]1C | IAM 4514 | 1.6 µg/mL
CCCCCCCCCCCCNC1CCc2cccc(OC)c2C1 |  | 1 µM
COc1ccc(C(=O)CC(c2ccc3ccccc3c2)C(C#N)C#N)cc1OC | ATCC 32264 | >50 µg/mL
CC/C=C/C(CC)CCC[C@@]1(CC)C[C@H](CC)[C@H](CC(=O)O)OO1 |  | 5 µg/mL
Cc1ccc(-c2nc([N+]#N)c(C(=O)N3CCCC3)[nH]2)cc1 | L29 | 50 µg/mL
CCCCCOc1ccc(-c2cc(-c3ccc(C(=O)N[C@H]4C[C@@H](O)[C@@H](O)NC(=O)[C@@H]5[C@@H](O)[C@@H](C)CN5C(=O)[C@H]([C@H](O)CC(N)=O)NC(=O)[C@H]([C@H](O)[C@@H](O)c5ccc(O)c(OS(=O)(=O)O)c5)NC(=O)[C@@H]5C[C@@H](O)CN5C(=O)[C@H]([C@@H](C)O)NC4=O)cc3)no2)cc1 |  | 4–128 µg/mL
COc1cc(O)c2c(c1)C(=O)c1c(cc3c(c1O)-c1c(cc(C)c(C(=O)NC(C)C(=O)O)c1O)[C@H](O)[C@H]3OC1OC(C)C(O)C(O)C1O)C2=O | IAM 4514 | >100 µg/mL
CCC(C)CC(C)CCCCCCCCC(=O)N[C@H]1C[C@@H](O)[C@H](NCCN)NC(=O)[C@@H]2[C@@H](O)CCN2C(=O)[C@H]([C@H](O)CCN)NC(=O)[C@H]([C@H](O)[C@@H](O)c2ccc(O)cc2)NC(=O)[C@@H]2C[C@@H](O)CN2C(=O)[C@H]([C@@H](C)O)NC1=O | H99 ΔFRR1 mutant | 25 µg/mL
O=C(/C=C/c1ccc(Cl)cc1)c1ccc(Cl)cc1 | ATCC 32264 | >50 µg/mL
Nc1[nH]c(=O)ncc1F |  | 0.03–64 µg/mL
COc1cc(O)c(C(C)=O)c(OC)c1 |  | >500 µg/mL
[Cl-].[Li+] | H99 ΔFRR1 mutant | >42 µg/mL
CCCCCCCCCCCCNC1CCc2ccc(O)cc2C1 |  | 2 µM
CC(=O)O[C@@H]1C[C@]2(C)C3=C(CC[C@H]2C(C)(C)[C@H]1O[C@@H]1C[C@H](CO)[C@@H](O)[C@H](O)[C@H]1O)[C@@]1(C)CC[C@](C)([C@H](C)C(C)C)[C@@H](C(=O)O)[C@]1(C)CC3 | YC203 | 16 µg/mL
C=C(Cl)/C=C/[C@H](O)CC(=C)C[C@H]1OC2[C@@H](O)[C@]3(O)C[C@@H](O)[C@H](C)[C@H](CCC/C=C\[C@@H]4C[C@@H](O)C[C@]5(C[C@H](OC)CC(CC(=O)[C@@H](C)[C@H](OC(C)=O)[C@@H](C)C(=C)C[C@@H]6C[C@@](C)(O)C[C@]7(C[C@H](OC(C)=O)CC(CC(=O)O[C@@H]([C@@H]1O)[C@H]2C)O7)O6)O5)O4)O3 | ATCC90112 | 3.12 µg/mL
CC[C@H]1OC(=O)C=C2C1=CC1OC(=O)[C@@]3(C)CCC[C@@]2(C)[C@@H]13 | ATCC90112 | 4 µg/mL
O=C(/C=C/c1cc2ccccc2nc1Cl)c1ccccc1 | ATCC 32264 | >50 µg/mL

7 of the rows above, restated:

| compound | strain or isolate | value |
|---|---|---|
| CCCCCCCCCCCCNC1CCc2cccc(OC)c2C1 |  | 1 µM |
| COc1cc(O)c2c(c1)C(=O)c1c(cc3c(c1O)-c1c(cc(C)c(C(=O)NC(C)C(=O)O)c1O)[C@H](OC1OC(C)CC(=O)C1O)[C@H]3O)C2=O | IAM 4514 | 6.3 µg/mL |
| C[C@@H]1O[C@@H](O[C@H]2[C@H](O[C@H]3CC[C@@]4(C)[C@@H](CC[C@]5(C)[C@@H]4CC=C4[C@@H]6CC(C)(C)CC[C@]6(C(=O)O)CC[C@]45C)[C@]3(C)CO)OC[C@H](O)[C@@H]2O)[C@H](O)[C@H](O)[C@H]1O | KCTC 7224 | 25 µg/mL |
| COc1cc(O)c2c(c1)C(=O)c1c(cc3c(c1O)-c1c(cc(C)c(C(=O)NC(C)C(=O)O)c1O)[C@H](OC1OC(CO)C(O)C(O)C1O)[C@H]3O)C2=O | IAM 4514 | >100 µg/mL |
| [Cl-].[Li+] | H99 ΔFRR1 mutant | >42 µg/mL |
| C[C@@H]1C[C@@H]([C@H](O)CC2CC(=O)NC(=O)C2)C(=O)[C@@H](C)C1 |  | 6.25 µg/mL |
| Cc1noc(NS(=O)(=O)c2ccc(N)cc2)c1C |  | 0.31–320 µg/mL |

Blank or dashed fields: not listed here. Lines come from different laboratories, so protocols vary.